{
  "source": "ChEMBL document CHEMBL1145067",
  "about": "“3'-C-branched-chain-substituted nucleosides and nucleotides as potent inhibitors of Mycobacterium tuberculosis thymidine monophosphate kinase” (J Med Chem, 2003)",
  "biological_target": "T1, Thymidylate kinase (Mycobacterium tuberculosis, UniProt P9WKE1)",
  "T1 sequence (P9WKE1 whole entry)": "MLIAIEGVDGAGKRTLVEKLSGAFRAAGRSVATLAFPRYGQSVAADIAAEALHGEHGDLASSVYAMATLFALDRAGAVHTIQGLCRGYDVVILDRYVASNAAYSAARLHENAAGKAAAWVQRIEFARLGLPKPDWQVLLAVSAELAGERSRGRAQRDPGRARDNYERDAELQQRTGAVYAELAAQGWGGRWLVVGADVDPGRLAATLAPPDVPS",
  "test": "In Vitro inhibition of Thymidine […] Kinase of Mycobacterium tuberculosis (TMPKm)",
  "procedure,_shortened": "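Recombinant TMPKmt or human TMPKh overexpressed in E. coli. Activity was read by a coupled spectrophotometric assay (NADH, 334 nm). ATP was fixed at 0.5 mM and dTMP at 0.05 mM; analogues were varied over 0.01–4 mM.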",
  "data": [
    {"smiles": "Cc1cn([C@H]2C[C@H](O)[C@@H](CO)O2)c(=O)[nH]c1=O", "note": "[DOXRIBTIMINE]", "values": [
      {"measurement": "Ki", "value": 27, "unit": "µM"}
    ]}
  ]
}
